Measured values from several laboratories, pooled; numbers as filed in NIAID ChemDB.

Shared fields: tests in culture; species: Poliovirus

Neighbouring rows are from separate reports.

O[C@@H]1CC(n2cnc3cc(Cl)c(Cl)cc32)OC[C@@H]1O ; strain: TYPE 1 ; cell line: HeLa ; measure: EC50 ; value: >100 µg/mL
Nc1ncnc2c1ncn2[C@@H]1C=C(CO)[C@@H](O)[C@H]1O ; strain: TYPE 1 ; measure: MIC ; value: >10 µg/mL
N#Cc1c(N2CCCCC2)nsc1-c1ccccc1 ; strain: Brunhilde (type 1) ; cell line: HEP-2 ; measure: EC50 ; value: 2.5 µg/mL
CC(=O)N[C@H]1[C@@H](O[C@@H]2O[C@H](C[C@@H](O)[C@H]3O[C@@H](n4ccc(=O)[nH]c4=O)[C@H](O)[C@@H]3O)[C@H](O)[C@H](O)[C@H]2NC(=O)/C=C/CC(C)C)O[C@H](CO)[C@@H](O)[C@@H]1O ; strain: TYPE 1 ; dose: 0.5 µg/mL ; cell line: BSC-1 ; measure: inhibition ; value: 0%
CSc1nsc(-c2ccccc2)c1C(N)=O ; strain: Brunhilde (type 1) ; cell line: HEP-2 ; measure: EC50 ; value: >250 µg/mL
Nc1nccc2c1ncn2[C@@H]1C=C[C@@H](O)[C@H]1O ; strain: TYPE 1 ; cell line: HeLa ; measure: EC50 ; value: >400 µg/mL
Nc1ncnc2c1ncn2C[C@H](O)CO ; strain: TYPE 1 ; cell line: HeLa ; measure: EC50 ; value: >400 µg/mL
CC(C)[Si]1(C(C)C)OC[C@H]2O[C@@H](n3cnc4cc(Cl)c(Cl)cc43)[C@@H](O)[C@H]2O[Si](C(C)C)(C(C)C)O1 ; strain: TYPE 1 ; cell line: HeLa ; measure: EC50 ; value: >400 µg/mL
CSc1nsc(-c2ccccc2)c1C#N ; strain: Brunhilde (type 1) ; cell line: HEP-2 ; measure: EC50 ; value: 0.045 µg/mL
CC(C)[Si]1(C(C)C)OC[C@H]2O[C@@H](n3cnc4cc(Cl)c(Cl)cc43)[C@H](O)[C@H]2O[Si](C(C)C)(C(C)C)O1 ; strain: TYPE 1 ; cell line: HeLa ; measure: EC50 ; value: >10 µg/mL
Nc1nccc2c1ncn2[C@@H]1C[C@H](CO)[C@@H](O)[C@H]1O ; strain: TYPE 1 ; cell line: HeLa ; measure: EC50 ; value: >400 µg/mL
N#Cc1c(SCCO)nsc1-c1ccccc1 ; strain: Brunhilde (type 1) ; cell line: HEP-2 ; measure: EC50 ; value: 0.3 µg/mL
O[C@@H]1[C@@H](OCc2ccccc2)[C@@H](COCc2ccccc2)O[C@H]1n1cnc2cc(Cl)c(Cl)cc21 ; strain: TYPE 1 ; cell line: HeLa ; measure: EC50 ; value: >10 µg/mL
CCCSc1nsc(-c2ccccc2)c1C#N ; strain: Brunhilde (type 1) ; cell line: HEP-2 ; measure: EC50 ; value: 15 µg/mL
OCCOC(CCO)n1cnc2cc(Cl)c(Cl)cc21 ; strain: TYPE 1 ; cell line: HeLa ; measure: EC50 ; value: >200 µg/mL

The last 2 rows once more:

{"smiles": "CCCSc1nsc(-c2ccccc2)c1C#N", "strain": "Brunhilde (type 1)", "cell line": "HEP-2", "measure": "EC50", "value": "15 µg/mL"}
{"smiles": "OCCOC(CCO)n1cnc2cc(Cl)c(Cl)cc21", "strain": "TYPE 1", "cell line": "HeLa", "measure": "EC50", "value": ">200 µg/mL"}

ECn: concentration that inhibits the pathogen or its effect by n%. Inhibition is in % at the dose shown (toxicity tests: loss of growth or viability).